Pooled drug test results. Numbers come from NIAID ChemDB, via PubChem.

Shared fields: growth or infection tests; species: Mycobacterium kansasii; read-out: MIC

Conditions beyond the fields shown may differ between rows. Blank or dashed fields: not listed here.

structure	method	strain	setting	result
N/C(=N\N=C\c1cc(Cl)ccc1O)SCc1ccc(F)cc1	broth dilution	ATCC 12478	14 d	16 µM
Nc1ccc(C(=O)O)c(O)c1	-	235/80	21 d	>1000 µM
O=C(N[C@@H](Cc1ccccc1)c1cnc(-c2ccccc2)[nH]1)OCc1ccccc1	-	My 6509/96	21 d	>250 µM
Cc1ccc2oc(=S)n(-c3ccc(C(F)(F)F)cc3)c(=S)c2c1	-	My 235/80	14 d	16 µM
CC(C)C[C@H](NC(=O)OCc1ccccc1)c1cnc(-c2ccccc2)[nH]1	-	My 6509/96	21 d	>250 µM
O=C(Oc1ccc(Cl)cc1C(=O)Nc1ccc(Br)cc1)c1cnccn1	-	6509/96	21 d	4 µM
C[C@@H](NC(=O)OCc1ccccc1)c1cnc(-c2ccccc2)[nH]1	-	My 235/80	21 d	250 µM
COc1ccc2oc(=S)n(-c3ccc(Cl)cc3)c(=S)c2c1	-	My 235/80	14 d	32 µM
Cc1ccc(CS/C(N)=N/N=C/c2ccccc2)cc1	broth dilution	ATCC 12478	21 d	62.5 µM
CC[C@@H](C)[C@H](NC(=O)OCc1ccccc1)c1cnc(-c2ccc([N+](=O)[O-])cc2)[nH]1	-	My 6509/96	7 d	16 µM
S=c1oc2ccc(Br)cc2c(=S)n1-c1cccc(Cl)c1	-	My 235/80	14 d	2 µM
O=C(Nc1cccc(Cl)c1)c1cc(Cl)ccc1OS(=O)(=O)c1ccccc1	-	6509/96	7 d	8 µM
O=c1oc2ccc(Br)cc2c(=S)n1-c1cccc(Cl)c1	-	My 235/80	21 d	4 µM
N/C(=N\N=C\c1cc(Br)ccc1O)SCc1ccc(C(F)(F)F)cc1	broth dilution	6509/96	21 d	32 µM
COc1ccc2oc(=O)n(-c3ccc(F)cc3)c(=S)c2c1	-	6509/96	21 d	16 µM
O=C(Oc1cc(Cl)ccc1C(=O)Nc1ccc(Cl)c(Cl)c1)c1cnccn1	-	235/80	21 d	8 µM
O=C(Nc1cccc(F)c1)c1ccc(Cl)cc1OS(=O)(=O)c1ccccc1	-	6509/96	14 d	32 µM
Fc1cccc(-n2c(=S)oc3ccc(Br)cc3c2=S)c1	-	My 235/80	14 d	16 µM
N/C(=N\N=C\c1ccccc1)SCc1cccc(Cl)c1	broth dilution	ATCC 12478	21 d	62.5 µM
O=C(Nc1ccc(Cl)cc1)c1cc(Cl)ccc1OS(=O)(=O)c1ccccc1	-	6509/96	14 d	8 µM
O=C(Oc1ccc(Cl)cc1C(=O)Nc1ccc(F)cc1)c1cnccn1	-	6509/96	21 d	8 µM
CC(C)[C@H](NC(=O)OCc1ccccc1)c1cnc(-c2ccc([N+](=O)[O-])cc2)[nH]1	-	My 235/80	21 d	62.5 µM
Cc1ccc(-n2c(=S)oc3ccc(C)cc3c2=S)cc1	-	6509/96	21 d	2 µM
O=C(Nc1ccc(C(F)(F)F)cc1)c1ccc(Cl)cc1OS(=O)(=O)c1ccccc1	-	235/80	7 d	2 µM
O=C(N[C@@H](Cc1ccccc1)c1cnc(-c2ccc([N+](=O)[O-])cc2)[nH]1)OCc1ccccc1	-	My 6509/96	21 d	16 µM
O=C(Nc1cccc(C(F)(F)F)c1)c1cc(Cl)ccc1OS(=O)(=O)c1ccccc1	-	6509/96	7 d	8 µM
O=C(Oc1cc(Cl)ccc1C(=O)Nc1ccc(C(F)(F)F)cc1)c1cnccn1	-	235/80	21 d	2 µM

For reference, 2 entries again:

O=C(Oc1cc(Cl)ccc1C(=O)Nc1ccc(Cl)c(Cl)c1)c1cnccn1 ; strain: 235/80 ; setting: 21 d ; result: 8 µM
O=C(Oc1ccc(Cl)cc1C(=O)Nc1ccc(F)cc1)c1cnccn1 ; strain: 6509/96 ; setting: 21 d ; result: 8 µM